These results are taken from PubChem BioAssay AID504884 (Broad Institute, 2011).

This is a selection; strong and weak results do not stand in their true shares. The source made the active and inactive calls. Rule as the data show it: active = activity above about 50% (passing the limit was not always enough); inconclusive = no clear call, values can overlap the other calls.

For the assay, the system named is DNA topoisomerase I (Yersinia pestis CO92). Description: Yersinia pestis topoisomerase I inhibitors, primary screen, biochemical, cleavage product accumulation, plate reader, single point (AID 504884). Particulars: Y. pestis Topo-I cleavage product accumulation, at 10 µM, stronger effect = higher value.
Consider `Cc1cc(SC(NC(=O)c2ccccc2)C(Cl)(Cl)Cl)nc(C(C)C)n1` (stereo unspecified), for which the activity is inactive: -0.356%.
Turning to `ClCCSc1nnc(-c2cccnc2)o1`, the activity is inactive: 5.42%.
Take `COC(=O)C1(C)COP(=O)(N2CCCCCC2)OC1` (stereo unspecified): the activity was inactive: 6.02%.
In the case of `CC(C)c1ccc(OP(=O)(Nc2ccccn2)Oc2ccccc2F)cc1` (stereo unspecified) it was inactive: 20.3%.
As for `CC(C)NC(=O)NP(=O)(Oc1ccccc1)Oc1ccccc1`, the activity was inactive: -2.32%.
The figure for `CCN(CC)C(=S)SC(NC=O)C(Cl)(Cl)Cl` (stereo unspecified) is inactive: -5.66%; for `O=C(OC1CN2CCC1CC2)c1cccc2[nH]cnc12` (stereo unspecified) it is inactive: 7.07%.
Turning to `O=[N+]([O-])c1cc([N+](=O)[O-])c(-c2ccn[nH]2)s1`, the activity was inactive: 1.51%.
In the case of `O=[As](O)(c1ccc(O)cc1)c1ccccc1O` it was inactive: 5.86%; in that of `C[As](=O)(O)c1cccc(C(=O)O)c1`, inactive: 6.23%.
In the case of `O=[N+]([O-])c1ccc(-c2cc([N+](=O)[O-])c(O)c([N+](=O)[O-])c2)cc1` it was inactive: -6.03%; in that of `COc1cc(C(=O)NCC2(N3CCOCC3)CCCCC2)ccc1OCC(C)C`, inactive: 26.8%.
Take `Cc1ccc(OP(=O)(Nc2ccc([N+](=O)[O-])cn2)Oc2ccc(C)cc2)cc1`: the activity is inactive: 7.48%.
As for `Cc1ccc2nc3c(c(C)c2c1)CC(C(Cl)Cl)S3` (stereo unspecified), the activity was inactive: 11.7%.
The figure for `O=[N+]([O-])c1cc(Oc2ccc([N+](=O)[O-])cc2C(F)(F)F)cc([N+](=O)[O-])c1` is inactive: -10.2%; for `COc1ccc(N/C(=N/P(=O)(N2CCOCC2)N2CCOCC2)N2CCOCC2)cc1` it is inactive: -0.992%.
As for `Cc1c2c(nc3ccccc13)SC(C(Cl)Cl)C2` (stereo unspecified), the activity was inactive: 20.5%.
In the case of `O=C(OC1CN2CCC1CC2)C12CC3CC(CC(C3)C1)C2` (stereo unspecified) it was inactive: 3.58%.
For the molecule `Cc1cc(=O)[nH]c(N[N+](=O)[O-])n1`, the activity was inactive: 1.55%.
The figure for `O=P1(N(CCCl)CCCl)Nc2ccccc2N1` is inactive: 8.08%; for `O=P1(N(CCCl)CCCl)OCCCN1CCCl` (stereo unspecified) it is inactive: 3.86%.
Regarding `COc1ccc2nc(NP(=O)(c3ccccc3)c3ccccc3)sc2c1`, the activity is inactive: -4.27%.
The figure for `COc1cc(I)ccc1[As](=O)(O)O` is inactive: 2.99%; for `Cc1ccc(NCCc2c([N+](=O)[O-])cc([N+](=O)[O-])cc2[N+](=O)[O-])cc1` it is inactive: -15.8%; for `Nc1cccc2c([As](=O)(O)O)cccc12` it is inactive: -3.36%.
In the case of `CCCOP(=S)(Nc1nc(N)cc(=O)[nH]1)OCCC` it was inactive: 2.59%; in that of `COc1cc(C2NCCC3(OCCO3)C2(C)C)cc(OC)c1OC` (stereo unspecified), inactive: -3.83%.
Consider `CCOP(=O)(Nc1cccc2ccccc12)OCC`, for which the activity is inactive: -1.44%.
The figure for `O=C(OC1CN2CCC1CC2)c1ccc(Cl)cc1` (stereo unspecified) is inactive: -0.842%.
As for `O=[As](O)(O)c1cccnc1`, the activity was inactive: 3.69%.
In the case of `COc1cc(C(=O)NCC2(N3CCOCC3)CCCCC2)cc(Cl)c1OC(C)C` it was inactive: 0.106%; in that of `CS(=O)(=O)c1ccc(Cl)c(NC(=O)COC(=O)C(O)(c2ccccc2)c2ccccc2)c1`, inactive: 1.48%; in that of `Cc1cccc(OCC(=O)OC2CN3CCC2CC3)c1` (stereo unspecified), inactive: -1.9%.
In the case of `O=[As](O)(c1cccc(O)c1)c1cccc(O)c1` it was inactive: 2.13%; in that of `NC(=O)Nc1ccc([As](=O)(O)O)cc1`, inactive: 1.68%.
On to `N#CCCN(C(=O)COC(=O)C(O)(c1ccccc1)c1ccccc1)c1ccc(F)cc1`, for which the activity is inactive: 2.47%.
In the case of `CN(C(=O)Cc1ccccc1)[C@@H]1CC[C@]2(CCCO2)C[C@H]1N1CCCC1`, the activity is inactive: 1.94%.
In the case of `CCOP1(=S)c2c(C)nn(CCC#N)c2N=C(c2ccc(F)cc2)N1C` (stereo unspecified) it was inactive: 6.41%; in that of `O=[N+]([O-])c1ccc2c(c1)nnn2O`, inactive: -4.28%; in that of `CN(C)C(=O)c1cc([N+](=O)[O-])cc2c1-c1c(cc([N+](=O)[O-])cc1[N+](=O)[O-])C2=O`, inactive: -7.83%.
In the case of `CN(C(=O)Cc1ccc(Cl)c(Cl)c1)[C@H]1CC[C@@]2(CCCO2)C[C@@H]1N1CCCC1`, the activity is inactive: -6.46%.
In the case of `CCOP1(=S)c2c(C)nn(CCC#N)c2N=C(c2ccccc2F)N1C` (stereo unspecified) it was inactive: 11.2%; in that of `O=P(Nc1nccs1)(Oc1ccccc1)Oc1ccccc1`, inactive: 8.52%.
With `O=P(Nc1nccs1)(c1ccccc1)c1nc2ccccc2s1` (stereo unspecified), the activity is inactive: -1.84%.
In the case of `CS(=O)(=O)c1cc([N+](=O)[O-])c2no[n+]([O-])c2c1`, the activity was inactive: -4.81%.
Consider `O=C(O)COc1ccc([As](=O)(O)O)cc1[N+](=O)[O-]`, for which the activity was inactive: -2.49%.
For the molecule `Nc1ccccc1[As](=O)(O)c1ccccc1`, the activity was inactive: 3.19%.
The figure for `O=P1(Nc2ncccn2)COc2ccccc2OC1` is inactive: 2.37%; for `Nc1cccc([As](=O)(O)c2ccccc2)c1` it is inactive: -11.8%.
The figure for `Cc1ccc(OCC(=O)OC2CN3CCC2CC3)cc1` (stereo unspecified) is inactive: -4.83%.
In the case of `O=[As](O)(c1cccs1)c1cccs1` it was inactive: 9.57%; in that of `NS(=O)(=O)c1cccc(NC(=O)COC(=O)C(O)(c2ccccc2)c2ccccc2)c1`, inactive: -12.3%; in that of `O=P1(Nc2ccc(Br)cn2)COc2ccccc2OC1`, inactive: 4%.
Take `Cc1nn(-c2ccccc2)c2c1P(=O)(N1CCOCC1)N(C)C(c1ccccc1)=N2` (stereo unspecified): the activity was inactive: 4.26%.
In the case of `Cc1ccc(C(=O)OC2CN3CCC2CC3)cc1` (stereo unspecified) it was inactive: 10.1%.
The figure for `CC1CCC(C(C)C)C(OP(=O)(Nc2ccccn2)c2ccccc2)C1` (stereo unspecified) is inactive: 10.5%; for `CN(C)C1(CNC(=O)c2ccc(S(C)(=O)=O)cc2)CCCCC1` it is inactive: 9%.
The figure for `O=C(/C=C/c1ccccc1)OC1CN2CCC1CC2` (stereo unspecified) is inactive: -1.64%.
In the case of `CCCC1OP(=O)(Nc2ccccc2)OCC1CC` (stereo unspecified), the activity is inactive: 5.32%.
As to `COc1ccccc1CNC(=O)COC(=O)C(O)(c1ccccc1)c1ccccc1`, the activity is inactive: 6.38%.
In the case of `CN(C(=O)Cc1ccc(Cl)c(Cl)c1)[C@@H]1CCCC[C@H]1N1CCCC1` it was inactive: -3.6%; in that of `CC(C)/C=N\N=C(\N)N[N+](=O)[O-]`, inactive: -3.65%; in that of `CC1(CBr)Cn2c(nc3ccccc3c2=O)S1` (stereo unspecified), inactive: -4.09%.
Regarding `CCC1=CC2Cc3nc4ccc(Cl)cc4c(N)c3C(C1)C2` (stereo unspecified), the activity was inactive: 5.04%.
In the case of `O=P1(Nc2ccccn2)COc2ccccc2OC1` it was inactive: 6.1%; in that of `CCOP(=O)(NC(=NC(C)c1ccccc1)NC(C)c1ccccc1)OCC` (stereo unspecified), inactive: 26.9%.
For `CCOP(=O)(Nc1ccc(C)cn1)OCC`, the activity is inactive: 3.53%.
For the molecule `CN(CCCl)Cc1cc(Cl)c(NC2=NCCN2)c(Cl)c1`, the activity is inactive: 0.572%.
For `Clc1n[nH]nc1-c1nn[nH][15n]1`, the activity is inactive: 2.57%.
As to `O=P1(N(CCCl)CCCl)NCCC(C(F)(F)F)O1` (stereo unspecified), the activity was inactive: 2.31%.
The figure for `CC(C)(C)C(=O)NC(Sc1ncccn1)C(Cl)(Cl)Cl` (stereo unspecified) is inactive: 5.51%.
